Source: PubChem BioAssay AID504761 (Drosophila RNAi Screening Center, 2011)
Screen: 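Fly genes whose silencing reduces dengue virus type 2 infection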 (primary screen). System: D.Mel-2 cells from Drosophila. Reagents: long dsRNA against Drosophila genes. Conditions: infection with dengue virus type 2; dose and infection time not stated. Detection: 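Per well on two replicate plates, imaging gave the percent of cells positive for viral envelope protein, ranked by infection, and a nuclear count of cells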. Scale: infection score: higher = more virus-infected cells. Rule for the call: 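Low infection ranks in the two replicates (chance level up to 0.065) followed by a retest with a 1.5-fold or larger significant decrease, p below 0.05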. Meaning of the calls: active = confirmed: knock-down lowers infection; inactive = not picked or not confirmed.
In all, the deposit lists about 22,000 reagents; shown is a random part of those that have a named target and a result. In the full data, 116 (0.52%) were called active. 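Calls depend on retest data that are not deposited; infection was ranked per plate without normalising between plates; the unit of the infection score is not given.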 Unmarked entries are inactive. The numbers tell different reagents against one gene apart. A plus sign joins genes that one reagent is predicted to hit. Not all columns of the deposit are shown. Not given: the amount of reagent, the time to read-out.

no.	predicted target	reagent	infection score, replicate 1	infection score, replicate 2
1	CG17378	1	1	2.15
2	Cyp6d2	1	5.16	4.24
3	Cyp6d2	2	0.9	2.21
4	mim	1	1.21	6.45
5	mim	2	8.34	3.81
6	CG43999	1	2.25	0.77
7	CG10959	1	11.9	4.53
8	CG10959	2	21.5	8.15
9	CG17906 + alien	1	1.5	1.89
10	Or59c	1	16.3	13.9
11	CRMP	1	7.19	1.38
12	CRMP	2	1.31	5.27
13	CRMP	3	3.56	6.2
14	nudE	1	7.86	5.27
15	nudE	2	2.78	5.37
16	nudE	3	5.16	14
17	Csp	1	9.19	26.2
18	CG11664	1	20.1	12.7
19	CG30088	1	5.51	6.73
20	CG30088	2	2.91	1.43
21	CG15127	1	0.65	0.37
22	CG15127	2	5.91	1.23
23	CG14043	1	4.79	8.63
24	CG14043	2	17.6	5.5
